The text below walks through data of US20110311550A1.

The assay concerns the target E1E2 complex (H77) with E2 mutation L441A (HCV genotype 1a, isolate H77) (UniProt P27958). Description: ELISA, lectin-captured E1E2 lysate, Ab 1 ug/ml.

Regarding MAb AR3A (antibody), the Binding relative to wt (%) is 9%.
